The source of these data is US20160145321A1 (CRUCELL HOLLAND B V, published 2016).

Test [1] addresses T1, G protein of RSV A/A2 (virus, ATCC Cat. No. VR-1540) (Respiratory syncytial virus A/A2, UniProt P03423 1-298).
T1 sequence: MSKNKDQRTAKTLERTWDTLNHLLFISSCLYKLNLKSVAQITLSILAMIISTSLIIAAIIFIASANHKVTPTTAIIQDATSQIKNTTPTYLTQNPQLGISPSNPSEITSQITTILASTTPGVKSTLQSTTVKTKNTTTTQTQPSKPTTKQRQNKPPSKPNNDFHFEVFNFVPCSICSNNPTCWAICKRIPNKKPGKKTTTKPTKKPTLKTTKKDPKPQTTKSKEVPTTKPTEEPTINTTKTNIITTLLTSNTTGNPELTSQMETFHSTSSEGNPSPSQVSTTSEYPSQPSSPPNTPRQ
The test can be described thus: cell-based or functional assay.

For test [2], the target named is T2, G protein of RSV B/18537 (virus, ATCC Cat. No. VR-1580) (Respiratory syncytial virus B/18537, UniProt P20896 1-292).
T2 sequence: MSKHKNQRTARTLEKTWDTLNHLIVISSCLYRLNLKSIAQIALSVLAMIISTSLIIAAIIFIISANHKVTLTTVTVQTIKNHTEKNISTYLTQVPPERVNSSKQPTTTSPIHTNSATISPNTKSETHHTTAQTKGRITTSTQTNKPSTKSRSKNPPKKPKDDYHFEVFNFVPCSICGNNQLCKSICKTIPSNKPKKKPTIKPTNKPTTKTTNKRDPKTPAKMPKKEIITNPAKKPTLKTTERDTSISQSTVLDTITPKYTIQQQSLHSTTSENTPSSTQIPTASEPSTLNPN
The test can be described thus: cell-based or functional assay.

B1: CB028.2 (antibody, V domains shown)
VH: QVQLVQSGAEVKKPGASVKVSCKASGYTFTTYGITWVRQAPGQGLEWMGWISGDSDNTNYAQNLQGRVTLTTDISTRTAYMELRSLKPDDTAMYYCARALAKWYCSSSSCFCGGGSCYSDYWGQGTLVTVSS
VL: DIQMTQSPSSLSASVGDRVTITCRASQGMSNYLNWYQQKPGKAPELLIYAASTLQSGVPSRFSGSGSGTDFTLTINSLQPEDFATYFCQQSFSTPLTFGGGTKVEIK
B1: in test [1], the “Neutralization IC50 (plaque reduction assay, Vero cells)” value came out at 11 ng/mL.

B2: CB002.1 (antibody, V domains shown)
VH: QVQLQESGPRLVKPSETLSLTCTVSGGSTSSYFWNWIRQPPGKGLEWIGYIYGSGSADYNPSLKSRVTISIDTSKTQFSLKLTSVTAADTAVYYCARSGFCTNDACYRRGSWFDPWGQGTLVTVSS
VL: DIQMTQSPSSLSASVGDRVTITCRASQSIDNYLNWYQQKPGKAPKLLIYAASSLQSGVPSRFSGSGSGTDFTLTVSSLHPEDFATYYCQQSYSTLTWTFGQGTKVEIK
notes: also called CB2.1
Turning to B2, in test [2], the “Neutralization IC50 (plaque reduction assay, Vero cells)” value was 23.4 ng/mL.

B3: CB058.1 (antibody, V domains shown)
VH: EVQLVESGGGLVQPGGSLRLSCVASGFTFSSYAMSWVRQAPGKGLEWVSAIRGSVDNTYYADSVKGRFTISRDNSKNTLYLQMNSLRVEDTAVYYCAKDPALYCSGETCFSDLTDWGQGTLVTVSS
VL: DIQMTQSPSSLSASVGDRVTITCRASQGINNYLAWFQQKPGKAPKSLIYAASTLPSGVPSRFSGSGSGTDFTLTISSLQPEDSATYFCQHYIRYPHTFGQGTKLEIK
With B3, the “Neutralization IC50 (plaque reduction assay, Vero cells)” value in test [2] is 4.2 ng/mL.

B4: CB048.3 (antibody, V domains shown)
VH: QVQLVESGGGVVQPGRSLRLSCAASGFTFSNHGMHWVRQAPGKGLEWVAVISYDGNKKYYADSVKGRFTVSRDNSKNTLSLQMDSLRAEDTAIYYCAKTTFYFDDSNYYEYLDYWGQGTLVTVSS
VL: DIQLTQSPSFLSASVGDRVTITCRASQGIRSYLAWYQQKPGKAPKLLIYAASTLQSGVPSRFSGGGSGTEFTLTISSLQPEDSATYYCQQLNTSPPYTFGQGTKLEIK
For the molecule B4, the “Neutralization IC50 (plaque reduction assay, Vero cells)” value in test [2] was determined as 8 ng/mL.
